Paper PMC7018034, “Antimicrobial activity of Ib-M peptides against Escherichia coli O157: H7” (PLoS ONE, 2020)

Experiments:
[1] = system: E. coli O157: H7 clinical isolate (AC188); assay type: cell-based, Escherichia coli O157: H7; details: ratio CC50 in VERO cells / MIC in AC188; maximum evaluated concentration used where CC50 not determined
[2] = system: E. coli O157: H7 (ATCC 43888); assay type: cell-based, Escherichia coli O157: H7; details: ratio CC50 in VERO cells / MIC in ATCC 43888; maximum evaluated concentration used where CC50 not determined

Substance | SI (selectivity index) E. coli O157: H7 AC188 [1] | SI (selectivity index) E. coli O157: H7 ATCC 43888 [2]
EWGRRMMGRGPGRRMMRRWW-NH2 [Ib-M4] | >63.5 | >32
EWGRRMMGRGPGRRMMRWWR-NH2 [Ib-M1] | 247 | 84.1
EWGRRMMGWGRGRRMMRRWW-NH2 [Ib-M6] | 66.1 | 33.1
EWGRRMMGWRPGRRMMRRWW-NH2 [Ib-M5] | 67.1 | 38
EWGRRMMGWRPGRRMMRWWR-NH2 [Ib-M2] | 54.9 | 42

Ends that are not written are not given here.
